From doi:10.1101/2022.07.05.498809
For at least one entry, the source does not settle the construct or the ends of the probe.

Test system: His-MBP-AlpA (Pseudomonas aeruginosa ID40)
Assay: EMSA

CGGTGTTGCACGCGGCGGGACGCTCGCGGTAGTTTTTTCCCATGATCACG (double strand) [ABE probe (ampDh3 promoter)]
binding result (1.25 uM protein, 0.3125 nM probe, weak, smeary shift): binds | binding result (plus BSA (5 and 12.5 uM), complex unaffected): binds
